Anti-infective test results gathered from many reports (values: NIAID ChemDB through PubChem).

Common to all: whole-cell or culture tests; agent: Mycobacterium tuberculosis

Neighbouring rows are from separate reports. Percent inhibition refers to the dose given; in toxicity tests it is the harm to the cells. An empty or dashed field is not shown. MIC50, MIC90 and the like: level of inhibition, or share of isolates inhibited. MIC bound: limit read from a one-dose screen.

structure	conditions	method	endpoint	strain	tested at	changes	cells	result
O=c1[nH]c2cc([N+](=O)[O-])ccc2c(O)c1N=Nc1ccccc1-c1ccccc1		resazurin	MIC	H37Rv				<6.25 µg/mL
CN[C@@H]1[C@H](O[C@H]2[C@H](O[C@H]3[C@H](O)[C@@H](O)[C@H](N=C(N)N)[C@@H](O)[C@@H]3N=C(N)N)O[C@@H](C)[C@]2(O)C=O)O[C@@H](CO)[C@H](O)[C@H]1O			MIC	Clinical isolate 8				3 µg/mL
CC(=O)c1c(C)[nH]c(C(=O)N/N=C/c2ccc([N+](=O)[O-])cc2)c1C		resazurin	MIC	H37Rv				<6.25 µg/mL
O=[N+]([O-])c1ccc(N2c3ccccc3Sc3ccccc32)cc1			MIC	H37Rv				>100 µg/mL
CC1SC2=NC3=C(c4ccccc4C3=O)C(c3ccc(Br)cc3)N2C1=O		BACTEC	inhibition	H37Rv	12.5 µg/mL			0%
CC(=O)c1ccccc1Br			MIC	H37Rv				>100 µg/mL
O=C(N/N=C/c1ccc(N2CCOCC2)o1)c1ccncc1		resazurin	MIC	18b				0.25 µg/mL
Cc1c(F)c(N2CCNC(C)C2)cc2c1c(=O)c(C(=O)O)cn2C1CC1			MIC50	82 strains				1 µg/mL
C=C(C)/C=C/[C@]12C[C@H](C)[C@H]3CC[C@](C)(NC)[C@@H](CC[C@H]1C)[C@@H]32			inhibition	H37Rv	64 µg/mL			100%
O=c1[nH]c2c([N+](=O)[O-])cccc2c(O)c1N=Nc1ccccc1-c1ccccc1		resazurin	inhibition	H37Rv	6.25 µg/mL			35%
Cc1ccc(S(=O)(=O)Oc2ccc3sc4cccc(NCCN(C)C)c4c(=O)c3c2)cc1		BACTEC	MIC bound	H37Rv				≤12.5 µg/mL
O=C(/C=C/c1ccccc1Cl)c1ccccc1		MTT	MIC	H37Rv				32 µg/mL
NNC(=O)c1ccncc1			MIC	PR455				0.08 µg/mL
C[C@H]1COc2c(N3CCN(C)CC3)c(F)cc3c(=O)c(C(=O)O)cn1c23			MIC50	37 strains (drug-resistant)				1 µg/mL
CCOC(=O)Nc1ccc(C(=O)OC)c(O)c1			MIC	H37Rv				>100 µg/mL
Cc1ccc(CNS(=O)(=O)c2ccc(-c3n[nH]c(C)c3C)o2)o1		resazurin	MIC	Clinical isolate				8 µg/mL
CO[C@H]1/C=C/O[C@@]2(C)Oc3c(C)c(O)c4c(=O)c(c5oc6cc(N7CCN(C(C)C)CC7)cc(=O)c6nc5c4c3=C2O)NC(=O)/C(C)=C\C=C\[C@H](C)[C@H](O)[C@@H](C)[C@@H](O)[C@@H](C)[C@H](OC(C)=O)[C@@H]1C			MIC	2912 (rifampin-sensitive)				0.012 µg/mL
C=C1C(=O)O[C@@H]2C[C@@]3(C)CCCC(C)=C3C[C@H]12			MIC	H37Rv				32 µg/mL
Cc1cccc(C2C(=S)NC(=O)C3=C2NCN(CCc2ccccc2)C3)n1		resazurin	MIC	18b				16 µg/mL
Nc1ccc(C(=O)O)c(O)c1			MIC	Clinical isolate 6				0.2 µg/mL
CC1=NN(C(=O)NS(=O)(=O)c2ccc(CCNC(=O)c3nccnc3N)cc2)C(C)(C)C1		BACTEC	MIC	H37Rv				≥12.5 µg/mL
O=C(NCC(O)c1ccccc1)c1ccccc1			MIC	H37Rv				>100 µg/mL
O=C(/C=C/c1c(F)cccc1Cl)c1ccc(F)cc1		MTT	MIC	H37Rv				64 µg/mL
O=C1C2=C(Nc3cc([N+](=O)[O-])ccc3N2)OC1c1c2ccccc2cc2ccccc12		BACTEC	MIC bound	H37Rv				>12.5 µg/mL
Cc1csc(N)n1.Cl			MIC	H37Rv				>100 µg/mL
O=C(O)/C=C/c1c2ccc(=O)c(O)c-2oc2c(O)c(O)ccc12		BACTEC	MIC bound	H37Rv				>12.5 µg/mL
O=C(NCCO)N1c2ccccc2Sc2ccccc21		resazurin	MIC	Clinical isolate				4 µg/mL
O=C(N/N=C/c1ccc(O)cc1O)c1ccncc1		BACTEC	MIC	H37Rv				1 µg/mL
C=C1C(=O)O[C@H]2[C@H]1CC/C(C)=C/CC[C@@]1(C)O[C@@H]21			MIC	H37Rv				16 µg/mL
CN1c2ccccc2CCC1CCc1ccc2c(c1)OCO2			MIC	MT9				>339 µg/mL
Cc1ccc(O)cc1-c1cc(O)ccc1C			MIC	H37Rv				>100 µg/mL
NNC(=O)c1ccncc1			MIC	Clinical isolate 4				0.1 µg/mL
CO[C@H]1/C=C/O[C@@]2(C)Oc3c(C)c(O)c4c(=O)c(c5oc6cc(N7CCN(CC(C)C)CC7)cc(=O)c6nc5c4c3=C2O)NC(=O)/C(C)=C\C=C\[C@H](C)[C@H](O)[C@@H](C)[C@@H](O)[C@@H](C)[C@H](OC(C)=O)[C@@H]1C			MIC	3113 (rifampin-sensitive)				0.006 µg/mL
CC1(C)CCC[C@](C)([C@H]2CC[C@]3(C)[C@@H]2[C@H](O)C[C@@H]2[C@@]4(C)CC[C@H](O)C(C)(C)[C@@H]4CC[C@]23C)O1		BACTEC	MIC bound	H37Rv				>12.5 µg/mL
CC1=CCC/C(C)=C/[C@H]2OC(=O)[C@@H](C)[C@@H]2CC1			MIC	H37Rv				128 µg/mL
OCCN(CCO)CCO			MIC	H37Rv				>100 µg/mL
CC(=O)OC/C=C(\C)CCC[C@H](C)CCC[C@H](C)CCCC(C)C			MIC	H37Rv				16 µg/mL
O=c1oc2ccc(-c3ccccc3)cc2c(O)c1N=Nc1c(Cl)cccc1Cl		resazurin	inhibition	H37Rv	6.25 µg/mL			23%
O=C(O)/C=C/c1ccccc1			MIC	H37Rv				100 µg/mL
O=c1[nH]c2cc([N+](=O)[O-])ccc2c(O)c1N=Nc1ccccc1-c1ccccc1		resazurin	MIC	H37Rv				<6.25 µg/mL
C=C1C(=O)O[C@@H]2C[C@@]3(C)CCCC4(CC4)[C@@H]3C[C@H]12			MIC	H37Rv				32 µg/mL
Oc1c(-c2ncco2)ccc2ccccc12			MIC	H37Rv				>100 µg/mL
CC(=O)Oc1ccc2c(c1)C(=O)CCCCCC(=O)O2		BACTEC	inhibition	H37Rv	12.5 µg/mL			25%
O=c1oc2ccc(-c3ccccc3)cc2c(O)c1N=Nc1ccc(F)cc1		resazurin	inhibition	H37Rv	6.25 µg/mL			18%
Cc1cc(C)c(O)c(N=Nc2ccccc2C(=O)O)c1			MIC	H37Rv				>100 µg/mL
O=C(/C=C/c1ccc(F)cc1)c1ccc(F)cc1		MTT	MIC	H37Rv				32 µg/mL
COC1OC(CO)C(O)C2OCCOCCOC3C(OC)OC(CO)C(O)C3OCCOCCOC12		BACTEC	MIC bound	H37Rv				>12.5 µg/mL
COc1ccc(N=Nc2c(O)c3c(Cl)ccc(Cl)c3[nH]c2=O)cc1		resazurin	inhibition	H37Rv	6.25 µg/mL			36%
CNC(C(=O)c1ccccc1)C(Cl)c1ccccc1.Cl			MIC	H37Rv				>100 µg/mL
CNc1nc(N)cc(Nc2ccc(Br)cc2)n1		BACTEC	MIC	H37Rv			VERO	12.5 µg/mL
Cc1ccc(C(=O)/C=C/c2ccccc2)cc1	7 d	resazurin	MIC	H37Rv				32 µg/mL
CC1(C)C(=O)N(Br)C(=O)N1Br		BACTEC	inhibition	H37Rv	12.5 µg/mL			0%
Cc1cc(-c2cc3c(cc2F)c(=O)c(C(=O)O)cn3C2CC2)cc(C)n1			MBC	1620-6				2 µg/mL
CC1(C)CC[C@]2(C(=O)O)CC[C@]3(C)C(=CCC4[C@@]5(C)CCC(=O)C(C)(C)C5CC[C@]43C)C2C1			MIC	H37Rv				16 µg/mL
CC(=O)CC(=O)Nc1ccc2ccc(S(=O)(=O)[O-])cc2c1.[Na+]			MIC	H37Rv				>100 µg/mL
O=c1[nH]c2ccccc2c(O)c1N=Nc1ccccc1		resazurin	inhibition	H37Rv	6.25 µg/mL			97%
CC1(C)S[C@@H]2[C@H](NC(=O)[C@H](N)c3ccccc3)C(=O)N2[C@H]1C(=O)O			MIC	BRE				>92 µM
COC(=O)C1(C)Cc2ccccc2C(=O)O1		resazurin	MIC	Clinical isolate				4 µg/mL
Cc1oc(N)c(C(N)=O)c1C		BACTEC	inhibition	H37Rv	12.5 µg/mL			13%
C=C1CC[C@@H](O)[C@]2(C)CC[C@H]3C(=C)C(=O)O[C@@H]3[C@@H]12			MIC	H37Rv				64 µg/mL
O=c1[nH]c2c([N+](=O)[O-])cccc2c(O)c1N=Nc1cccc([N+](=O)[O-])c1		resazurin	inhibition	H37Rv	6.25 µg/mL			60%
C=C(CC(=O)O)C(=O)O			MIC	H37Rv				>100 µg/mL
CCCCCC(=O)C(C)(c1nc2nnc(N)n2[nH]c1=O)c1nc2nnc(N)n2[nH]c1=O		BACTEC	MIC bound	H37Rv				>12.5 µg/mL
OC(CN1CCOCC1)c1ccccc1			MIC	H37Rv				>100 µg/mL
C=CCN(CC=C)CCN1CCN(CCCN2c3ccccc3Sc3ccc(C(F)(F)F)cc32)CC1.Cl.Cl.Cl			MIC	H37Rv			VERO	6.25 µg/mL
CC(=O)NC[C@H]1CN(c2ccc(N3CCOCC3)c(F)c2)C(=O)O1		resazurin	MIC	Clinical isolate BRF 23		INH resistant		0.25 µg/mL
CCCCc1ccncc1			MIC	H37Rv				>100 µg/mL
O=c1[nH]c2cc(Cl)ccc2c(O)c1N=Nc1cccc(Cl)c1		resazurin	inhibition	H37Rv	6.25 µg/mL			47%
CC1=C(O)C(=O)CC1			MIC	H37Rv				>100 µg/mL
CC(C)[C@H]1C(=O)OC[C@@H](NC(=O)c2cnc3ccccc3n2)C(=O)N[C@@H](C)C(=O)N(C)[C@@H]2CSSC[C@H](C(=O)N1C)N(C)C(=O)[C@H](C)NC(=O)[C@H](NC(=O)c1cnc3ccccc3n1)COC(=O)[C@H](C(C)C)N(C)C2=O			MIC	PAS-R				0.8 µg/mL
c1ccc2c(c1)sc1ccccc12			MIC	H37Rv				>100 µg/mL
O=c1[nH]c2c(Cl)c(Cl)ccc2c(O)c1N=Nc1cccc(F)c1		resazurin	inhibition	H37Rv	6.25 µg/mL			80%
CCCCCc1cc(OC)c2ccccc2n1			MIC	MT8				21 µg/mL
COC(=O)c1ccc(CC(c2ccccc2)c2ccccc2)cc1			MIC	H37Rv				>100 µg/mL
CC(C)=CCCC(C)CCO			MIC	H37Rv				64 µg/mL
Nc1c(C(=O)O)c2nc3c(CO)cccc3oc-2cc1=O		BACTEC	MIC bound	H37Rv				>12.8 µg/mL
CCC(CC)C(=O)Nc1occ2c1CC(C)CC2		resazurin	MIC	18b				16 µg/mL
O=c1c2ccccc2oc2c1ccc1ncccc12		BACTEC	MIC bound	H37Rv				≤12.5 µg/mL
O=C(/C=C/c1c(F)cccc1Cl)c1ccccc1	14 d	resazurin	MIC	H37Rv				16 µg/mL
CC1(C)CC(=O)C2=C(C1)C1=Nc3ccccc3C1=C2		resazurin	MIC	Clinical isolate				8 µg/mL
CCN(C(=S)S)c1ccccc1		BACTEC	inhibition	H37Rv	12.5 µg/mL			50%
CC1(C)CC[C@]2(C(=O)O)CC[C@]3(C)C(=CC[C@@H]4[C@@]5(C)CC[C@H](O)C(C)(C)[C@@H]5CC[C@]43C)[C@@H]2C1			MIC	H37Rv				64 µM
O=C1c2ccccc2C(=O)c2c(NCCO)cccc21			MIC	H37Rv				50 µg/mL
CCOCC1COc2c(cc3[nH]cc(C(=O)OCC)c(=O)c3c2Cl)O1		BACTEC	inhibition	H37Rv	12.5 µg/mL			24%
O=C(O)/C=C/c1ccc([N+](=O)[O-])o1			MIC	H37Rv				50 µg/mL
CC(=O)NCCc1nc(-c2nc(C(=O)O)cs2)cs1		BACTEC	MIC bound	H37Rv				>12.8 µg/mL
O=C(/C=C/c1ccccc1)c1ccccc1	14 d	resazurin	MIC	H37Rv				32 µg/mL